Measurements reported in US6482802B1 (Endowment for Research in Human Biology, Inc., priority 1998, dated 2002).

System: nuclear translocation of 125I-angiogenin in HUVE cells
Test: Nuclear translocation of 125I-angiogenin in HUVE cells
Conditions: inhibitor 10 μM, 125I-angiogenin 1 μg/ml 30 min

Structure (SMILES): O=[As]c1ccccc1 (centres unmarked)
- Nuclear 125I-angiogenin (37° C. 30 min, control 3090 ± 260): 3040 ± 70 cpm
- % inhibition of nuclear translocation of angiogenin: 0%
